# Experimental data: US6670383B2, “Pyranocoumarin compounds as a novel pharmacophore with anti-TB activity” (priority 2001, dated 2003)
# Tested on: M. tuberculosis H37Ra
# Experiment: MIC and MBC determination using 2-fold dilutions
# Assay type: cell-based
row,Compound,MIC/MBC
1,"C=CCOc1cc(OCC=C)c2c(CCC)cc(=O)oc2c1C(O)CC (stereo not drawn) [Compound 21d, 5,7-Bis-allyloxy-8-(1-hydroxy-propyl)-4-propyl-chromen-2-one]",>4
2,"CCCc1cc(=O)oc2c(C(=O)CC)c(OC)c3c(c12)OC(C)(C)CC3 [Compound 44b, 5-Methoxy-2,2-dimethyl-6-propionyl-10-propyl-3,4-dihydro-2H-pyrano[2,3-f]chromen-8-one]",>4
3,"C=CC(C)Oc1cc2c(c3oc(=O)cc(CCC)c13)C(O)C(C)C(C)O2 (stereo not drawn) [cis-17f, 5-(1-Methylallyloxy)-10-hydroxy-8,9-dimethyl-4-propyl-9,10-dihydro-8H-pyrano[2,3-f]chromen-2-one]",>4
